In PubChem BioAssay AID2315 (National Center for Advancing Translational Sciences (NCATS), 2010):
The list shows a part of the results, in another mix than the full data. The source made the active and inactive calls. Rule as the data show it: active = inhibition mostly above about 28% (no sharp cut-off); inactive = mostly below about 43%.

Assay: A qHTS for Small Molecule Inhibitors of Shiga Toxin; as to inhibition: 0% is about no effect
Conditions: Vero cells, Shiga toxin protein synthesis inhibition reporter; at 38.7 µM, hits give high values
For CN1CCC(Nc2ccc(F)c(Cl)c2)CC1, the inhibition was inactive: 22.9%.
For CCOc1ncccc1C(=O)NCC1(N2CCOCC2)CCCCC1, the inhibition was inactive: -9.61%.
With O=C(O)C1(Nc2ccccc2)CCN(Cc2ccccc2)CC1 the inhibition was inactive: 3.23%.
In the case of CC(C)(C)OC(=O)N1CCC(Nc2ccccc2)CC1, the inhibition is reported as inactive: -12.4%.
For CCCOc1ccc(C(=O)NCC2(N(C)C)CCCCC2)cc1, the inhibition was inactive: -15.1%.
With COc1cccc(C(=O)N(c2cc(C)cc(C)c2)C2CCN(C(=O)OC(C)(C)C)CC2)c1 the inhibition was inactive: 2.55%.
For COc1cc(OC)cc(C(=O)NCC2(N3CCOCC3)CCCCC2)c1, the inhibition was inactive: -12.8%.
With CCC(CO)(C(=O)OC1CN2CCC1CC2)c1ccccc1 (stereo not drawn) the inhibition was inactive: -15%.
With CN1CCC(Nc2ccc(Cl)cc2)CC1 the inhibition was inactive: -7.91%.
With CCCOc1ccc(C)cc1CN(CCCl)CCCl the inhibition was inactive: -12.3%.
For COc1cc(OC)cc(C(=O)NCC2(N3CCCCC3)CCCCC2)c1, the inhibition was inactive: -19%.
With Fc1ccccc1NC1CCN(Cc2ccccc2)CC1 the inhibition was inactive: -15.2%.
In the case of CCN1CCC(Nc2cccc(F)c2)CC1, the inhibition is reported as inactive: -13.9%.
For CN(C)c1ccc(C(=O)NCC2(N3CCCCC3)CCCCC2)cc1, the inhibition was inactive: -11.5%.
For N#Cc1ccc(C(=O)NCC2(N3CCCCC3)CCCCC2)cc1, the inhibition was inactive: -6.73%.
In the case of CC(C)(C)OC(=O)N1CCC(N(C(=O)c2ccccc2)c2ccc(Cl)cc2)CC1, the inhibition is reported as inactive: -7.52%.
For CCOC(=O)C(CC)C1=NC(C)(C)Cc2ccccc21.O=[N+]([O-])c1cc([N+](=O)[O-])c(O)c([N+](=O)[O-])c1 (stereo not drawn), the inhibition was inactive: -1.61%.
With CN(C)C1(CNC(=O)c2cccc(C#N)c2)CCCCC1 the inhibition was inactive: -3.1%.
For CCCN1CCC(Nc2cc(OC)cc(OC)c2)CC1, the inhibition was inactive: -5.31%.
With c1ccc(CN2CCC(Nc3ccccc3)CC2)cc1 the inhibition was inactive: -16.5%.
With COc1ccc(C(=O)NCC2(N3CCOCC3)CCCCC2)cc1OC the inhibition was inactive: -6.02%.
In the case of CCOC(=O)N1CCC(Nc2ccc(C)cc2)CC1, the inhibition is reported as inactive: -0.925%.
With N/C(=N\O)c1c(N)no[n+]1[O-] the inhibition was inactive: 6.39%.
In the case of O=C(O)c1cccc(Nc2c([N+](=O)[O-])cc([N+](=O)[O-])cc2[N+](=O)[O-])c1, the inhibition is reported as inactive: 10.9%.
With O=C(OC1CN2CCC1CC2)C1c2ccccc2C=Cc2ccccc21 (stereo not drawn) the inhibition was inactive: -6.06%.
With CC(C)c1ccc(NC2CCN(C(=O)OC(C)(C)C)CC2)cc1 the inhibition was “active”.
In the case of CN(C)c1cccc(C(=O)NCC2(N3CCCCC3)CCCCC2)c1, the inhibition is reported as inactive: -6.54%.
In the case of O=[N+]([O-])c1cc([N+](=O)[O-])c(OC2CCCCC2O)c([N+](=O)[O-])c1 (stereo not drawn), the inhibition is reported as inactive: 1.56%.
